# Literature values in PubChem BioAssay AID977610.
# Tests used:
# Assay in all cases: PubChem AID 977610
# [1] = biological target: HIV PROTEASE RETROPEPSIN 3 (I47A); conditions: PDB protein-ligand complexes, literature Ki; protein: HIV PROTEASE RETROPEPSIN 3 (I47A); PDB entry 2QHC
# [2] = biological target: B/Perth Neuraminidase D197E mutant; conditions: PDB protein-ligand complexes, literature Ki; protein: B/Perth Neuraminidase D197E mutant; PDB entry 3K3A
# HIV-1 protease v82f i84v = conditions: PDB protein-ligand complexes, literature Ki; protein: HIV-1 protease v82f i84v; PDB entry 1MEU
# HIV-1 protease I84V = conditions: PDB protein-ligand complexes, literature Ki; protein: HIV-1 protease I84V; PDB entry 1MES
# HIV-1 protease V82F = conditions: PDB protein-ligand complexes, literature Ki; protein: HIV-1 protease V82F; PDB entry 1MET
compound,measurement,setting,value
Cc1cccc(C)c1OCC(=O)N[C@@H](Cc1ccccc1)[C@@H](O)C[C@H](Cc1ccccc1)NC(=O)[C@H](C(C)C)N1CCCNC1=O,Ki,[1],1.1 nM
CCC(CC)O[C@@H]1C=C(C(=O)O)C[C@H](N)[C@H]1NC(C)=O,Ki,[2],84 nM
O=C1N(Cc2ccc(CO)cc2)[C@H](Cc2ccccc2)[C@H](O)[C@@H](O)[C@@H](Cc2ccccc2)N1Cc1ccc(CO)cc1,Ki,HIV-1 protease v82f i84v,800 nM
same,Ki,HIV-1 protease I84V,20 nM
same,Ki,HIV-1 protease V82F,0.4 nM
